Measured values from several laboratories, pooled; numbers as filed in NIAID ChemDB.

MIC bound: limit read from a one-dose screen. Blank or dashed fields: not listed here. ICn: concentration for n% inhibition. Percent inhibition refers to the dose given; in toxicity tests it is the harm to the cells. Rows are shuffled and stem from different studies.

smiles | read by | dose | kind | strain or isolate | target | cells | endpoint | species | result
CC1CC2OC(=O)C3(C)C2C(OC3(C)O)C2(C)C(=O)C=CC12 |  |  | culture | H37Rv |  |  | MIC | Mycobacterium tuberculosis | >100 µg/mL
OCc1ccccc1-c1cncc(N2CCN(c3ccc(F)cc3F)CC2)n1 |  |  | target |  | UL97 kinase |  | IC50 | Cytomegalovirus | <100 µM
COC(=O)CCC(=O)CC(=O)C(=O)Nc1ccc(F)cc1 | resazurin | 6.25 µg/mL | culture | H37Rv |  |  | inhibition | Mycobacterium tuberculosis | 23%
O=[N+]([O-])c1ccc2c(c1)-c1ccccc1S2(=O)=O |  |  | culture | H37Rv |  |  | MIC | Mycobacterium tuberculosis | >100 µg/mL
Clc1ccc(N2CCN(c3cncc(-c4ccoc4)n3)CC2)cc1 |  | 10 µM | target |  | UL97 kinase |  | inhibition | Cytomegalovirus | >15%
CCCCCCCCCCCCCCNC(=S)NCCCCCCCCCCCCCC |  |  | culture | H37Rv |  |  | MIC | Mycobacterium tuberculosis | >100 µg/mL
CC(=O)c1ccc(N2CCN(c3cncc(-c4ccccc4C(C)=O)n3)CC2)cc1 |  | 10 µM | target |  | UL97 kinase |  | inhibition | Cytomegalovirus | >15%
O=C(Nc1nnc(NCC(c2ccccc2)c2ccccc2)s1)c1cc2ccccc2s1 |  |  | target |  | Polymerase |  | IC50 | Human cytomegalovirus | >25 µM
CC(=O)c1cccc(-c2cncc(N3CCN(c4ccc(F)cc4F)CC3)n2)c1 |  |  | target |  | UL97 kinase |  | IC50 | Cytomegalovirus | <100 µM
Cc1cc(=O)c2c(ccc3[nH]c(-c4ccco4)nc32)[nH]1 | BACTEC |  | culture | H37Rv |  |  | MIC bound | Mycobacterium tuberculosis | >12.5 µg/mL
O=C(O)COCc1ccccc1 |  |  | culture | H37Rv |  |  | MIC | Mycobacterium tuberculosis | >100 µg/mL
COc1ccc(Cl)c(-c2cc(OC)c(N=N/C(=N\Nc3ccc([N+](=O)[O-])cc3)c3ccc([N+](=O)[O-])cc3)cc2Cl)c1 | BACTEC |  | culture | H37Rv |  |  | MIC bound | Mycobacterium tuberculosis | >12.5 µg/mL
O=C(Nc1nnc(NCCCNC2CCCCC2)s1)c1cccc([N+](=O)[O-])c1 |  |  | target |  | Polymerase |  | IC50 | Human cytomegalovirus | <25 µM
Nc1nc(N)nc(Cc2ccccc2)n1 |  |  | culture | H37Rv |  |  | MIC | Mycobacterium tuberculosis | >100 µg/mL
COc1cc(C(=O)N=Nc2c(O)[nH]c3ccc(Br)cc23)cc(OC)c1OC | BACTEC |  | culture | H37Rv |  |  | MIC bound | Mycobacterium tuberculosis | >12.5 µg/mL
COc1ccccc1OP(=O)(Oc1ccccc1OC)Oc1ccccc1OC |  |  | culture | H37Rv |  |  | MIC | Mycobacterium tuberculosis | >100 µg/mL
Fc1ccc(N2CCCCC2)c(NC(=S)c2ccncc2)c1 | kinase activity | 10 µM | host protein |  | MAPK1 |  | inhibition |  | 24%
Cc1ccc(C)n1-c1ccc(S(=O)(=O)c2ccc(N)cc2)cc1 |  |  | culture | H37Rv |  |  | MIC | Mycobacterium tuberculosis | >100 µg/mL
O=C(CCCC(=O)Nc1ccc2[nH]c3ccccc3c(=O)c2c1)Nc1ccc2[nH]c3ccccc3c(=O)c2c1 | BACTEC | 12.5 µg/mL | culture | H37Rv |  |  | inhibition | Mycobacterium tuberculosis | -43%
CCCCCCCC/C=C/CCCCCCCC(=O)Nc1nnc(NC2CCc3ccccc32)s1 |  |  | target |  | Polymerase |  | IC50 | Human cytomegalovirus | >25 µM
CC1=CCC([N+](=O)[O-])C(c2ccccc2)C1 |  |  | culture | H37Rv |  |  | MIC | Mycobacterium tuberculosis | 50 µg/mL
O=C(O)CSC(=S)Nc1ccccn1 | BACTEC |  | culture | H37Rv |  |  | MIC | Mycobacterium tuberculosis | ≥128 µg/mL
O=C1NCCN1 |  |  | culture | H37Rv |  |  | MIC | Mycobacterium tuberculosis | >100 µg/mL
COc1ccc(C2OCC3(O)C(c4ccc(OC)c(OC)c4)OCC23)cc1OC | BACTEC |  | culture | H37Rv |  |  | MIC bound | Mycobacterium tuberculosis | >12.5 µg/mL
COc1cc(C(=O)O)ccc1O |  |  | culture | H37Rv |  |  | MIC | Mycobacterium tuberculosis | >100 µg/mL
Nc1nc(-c2cccc([N+](=O)[O-])c2)c(N=Nc2ccc(Br)cc2)s1 | BACTEC |  | culture | H37Rv |  |  | MIC bound | Mycobacterium tuberculosis | >6.25 µg/mL
Nc1ccc(S(=O)(=O)c2ccc(N)cc2S(=O)(=O)O)cc1 |  |  | culture | H37Rv |  |  | MIC | Mycobacterium tuberculosis | >100 µg/mL
CCOc1ccc2ccccc2c1C(=O)Nc1nnc(NC2CCN(Cc3ccccc3)CC2)s1 |  |  | target |  | Polymerase |  | IC50 | Human cytomegalovirus | <25 µM
N=C(N)c1ccc(N=Nc2c(O)ccc3cc4c(N=Nc5ccc(C(=N)N)cc5)c(O)ccc4cc23)cc1 | resazurin |  | culture | H37Rv |  |  | MIC bound | Mycobacterium tuberculosis | >6.25 µg/mL
NC(=O)CS |  |  | culture | H37Rv |  |  | MIC | Mycobacterium tuberculosis | >100 µg/mL
O=C(O)CNC(=O)CN1C(=O)CC(NC(=O)OCc2ccccc2)C1=O | BACTEC |  | culture | H37Rv |  |  | MIC | Mycobacterium tuberculosis | ≥12.5 µg/mL
O=C(O)c1ccc([N+](=O)[O-])cc1C(=O)O |  |  | culture | H37Rv |  |  | MIC | Mycobacterium tuberculosis | >100 µg/mL
Cc1ccc(N2CCN(c3cncc(-c4ccc5ccccc5c4)n3)CC2)cc1C |  | 1 µM | target |  | UL97 kinase |  | inhibition | Cytomegalovirus | <50%
C#CC[C@@H](C(=O)N[C@H](/C=C/C(=O)OCC)C[C@@H]1CCNC1=O)n1cccc(NC(=O)c2cc(C)on2)c1=O | cytopathic effect / XTT | 0.12 µM | culture | Serotype 81 |  | H1-HELA | inhibition | Rhinovirus | 90%
O=C(C[n+]1ccccc1)N/N=C/c1ccc([N+](=O)[O-])s1.[Cl-] | BACTEC |  | culture | H37Rv |  |  | MIC | Mycobacterium tuberculosis | ≥12.5 µg/mL
COc1ccc(CNc2nnc(NC(=O)c3ccc(C#N)cc3)s2)cc1OC |  |  | target |  | Polymerase |  | IC50 | Human cytomegalovirus | >25 µM
COc1ccc(S(=O)(=O)c2cnc(N/N=C/c3ccc([N+](=O)[O-])o3)nc2N)cc1 | resazurin | 6.25 µg/mL | culture | H37Rv |  |  | inhibition | Mycobacterium tuberculosis | -3%
COC(=O)NCC(=O)O |  |  | culture | H37Rv |  |  | MIC | Mycobacterium tuberculosis | >100 µg/mL
C[C@H]1[C@H](c2ccccc2)N[C@H](c2ccccc2)C[C@@]1(N)C#N | resazurin |  | culture | H37Rv |  |  | MIC bound | Mycobacterium tuberculosis | >6.25 µg/mL
O=C(Nc1nnc(NCC(c2ccccc2)c2ccccc2)s1)c1ccc(Br)cc1 |  |  | target |  | Polymerase |  | IC50 | Human cytomegalovirus | >25 µM
S=C(SCc1cc(Cl)cc2c1OCOC2)N1CCSCC1 | BACTEC | 128 µg/mL | culture | H37Rv |  |  | inhibition | Mycobacterium tuberculosis | 74%
N#Cc1ccc(-c2cncc(N3CCN(c4ccncc4)CC3)n2)cc1 |  | 1 µM | target |  | UL97 kinase |  | inhibition | Cytomegalovirus | <50%

3 of the rows above, restated:

smiles | read by | dose | kind | strain or isolate | target | cells | endpoint | species | result
O=C(O)COCc1ccccc1 |  |  | culture | H37Rv |  |  | MIC | Mycobacterium tuberculosis | >100 µg/mL
CCCCCCCCCCCCCCNC(=S)NCCCCCCCCCCCCCC |  |  | culture | H37Rv |  |  | MIC | Mycobacterium tuberculosis | >100 µg/mL
CC1CC2OC(=O)C3(C)C2C(OC3(C)O)C2(C)C(=O)C=CC12 |  |  | culture | H37Rv |  |  | MIC | Mycobacterium tuberculosis | >100 µg/mL